Experimental data from patent publication US20060083830A1, “Polylysine-containing food additive and acidic adjuvant” (priority 2004, published 2006).

System: E. coli O157:H7
Experiment: E. coli O157:H7 on boiled dumplings with ε-polylysine in the dough, room temperature (22-25° C.), CFU determination
Conditions: for Log Reduction: vs control Group A

## poly(imino(2-amino-1-oxo-1,6-hexanediyl)) [ε-PL]
1000 ppm ε-PL, after 3 hours
  average Log Value: 3.35
  average of CFU/dumpling: 2.25E+03 CFU/dumpling
  Log Reduction: 0.35
1000 ppm ε-PL, after 24 hours
  average Log Value: 6.56
  average of CFU/dumpling: 3.61E+06 CFU/dumpling
  Log Reduction: 2.34
1000 ppm ε-PL, after 48 hours
  average Log Value: 7.81
  average of CFU/dumpling: 6.51E+07 CFU/dumpling
  Log Reduction: 1.89
1000 ppm ε-PL, after 72 hours
  average Log Value: 8.24
  average of CFU/dumpling: 1.74E+08 CFU/dumpling
  Log Reduction: 1.61
2000 ppm ε-PL, after 3 hours
  average Log Value: 2.05
  average of CFU/dumpling: 1.13E+02 CFU/dumpling
  Log Reduction: 1.65
2000 ppm ε-PL, after 24 hours
  average Log Value: <2.42
  average of CFU/dumpling: <2.64E+02 CFU/dumpling
  Log Reduction: >6.48
2000 ppm ε-PL, after 48 hours
  average Log Value: >5.66
  average of CFU/dumpling: >4.61E+05 CFU/dumpling
  Log Reduction: <4.05
2000 ppm ε-PL, after 72 hours
  average Log Value: <4.52
  average of CFU/dumpling: <3.33E+04 CFU/dumpling
  Log Reduction: >5.33
3000 ppm ε-PL, after 3 hours
  average Log Value: 1.73
  average of CFU/dumpling: 5.33E+01 CFU/dumpling
  Log Reduction: 1.98
3000 ppm ε-PL, after 24 hours
  average Log Value: <2.70
  average of CFU/dumpling: <4.97E+02 CFU/dumpling
  Log Reduction: >6.20
3000 ppm ε-PL, after 48 hours
  CFU/dumpling: <1.00E+01 CFU/dumpling
  average Log Value: <1.00
  average of CFU/dumpling: <1.00E+01 CFU/dumpling
  Log Reduction: >8.71
3000 ppm ε-PL, after 72 hours
  CFU/dumpling: <1.00E+01 CFU/dumpling
  average Log Value: <1.00
  average of CFU/dumpling: <1.00E+01 CFU/dumpling
  Log Reduction: >8.85
3000 ppm, inoculation level 6.0×10^3 CFU/dumpling
  bacteria killed: more than 2 logs
Final concentration of 3000 ppm in flour portion of dumpling
  replication of E. coli O157:H7: completely suppressed replication of E. coli O157:H7
